# Reference: publication PMC10812941, “Selenium-Containing (Hetero)Aryl Hybrids as Potential Antileishmanial Drug Candidates: In Vitro Screening against L. amazonensis” (Biomedicines, 2024)
# Test system: L. amazonensis intracellular amastigotes
# Test: Anti-amastigote assay in infected murine peritoneal macrophages
# Details: peritoneal macrophages vs intracellular amastigotes
Compound,SI (peritoneal macrophages/IC50 on amastigotes),SI (peritoneal macrophages/IC50 on amastigotes) (listed as 107),SI (peritoneal macrophages/IC50 on amastigotes) (listed as 113)
"C[C@@H]1[C@H](O)[C@@H](C)/C=C/C=C/C=C/C=C/C=C/C=C/C=C/[C@H](O[C@@H]2O[C@H](C)[C@@H](O)[C@H](N)[C@@H]2O)C[C@@H]2O[C@](O)(C[C@@H](O)C[C@@H](O)[C@H](O)CC[C@@H](O)C[C@@H](O)CC(=O)O[C@H]1C)C[C@H](O)[C@H]2C(=O)O [ANFB, amphotericin B, reference compound]",25.93 and 25.92,–,–
COc1ccccc1[Se]c1c(-c2ccccc2)nc2cc(C)ccn12 [MRK-107],12.55,10.92,–
Cc1ccn2c([Se]c3ccccc3)c(-c3ccccc3)nc2c1 [MRK-113],10.92,–,12.55

# Values joined by “and” are separate entries in the source; they are usually repeats but may differ in a detail not shown here. Identical values can stand only once.
